Results of unrelated studies side by side (data: NIAID ChemDB).

All rows: enzyme or target tests

Percent inhibition refers to the dose given; in toxicity tests it is the harm to the cells.

smiles,read by,read-out,strain or isolate,target,changes,dose,agent,value
NNC(=O)c1ccncc1,-,inhibition,H37RV (INH 10 ug/mL-R),Citrate synthase,-,1000 µM,Mycobacterium tuberculosis,0%
N/C(=N\OC(=O)c1cccc(Cl)c1Cl)c1ccc(Cl)cc1Cl,scintillation proximity / radiometric,IC50,-,Polymerase,-,-,Human cytomegalovirus,10 µM
CN1CCN(c2cc3c(cc2F)c(=O)c(C(=O)O)cn3C2CC2)CC1,-,IC50,-,DNA gyrase,-,-,Streptococcus pneumoniae,142 µg/mL
CO/N=C(/C)CCC(C)(C)CN(C[C@@H](O)[C@H](Cc1ccccc1)NC(=O)O[C@H]1CO[C@H]2OCC[C@H]21)S(=O)(=O)c1cccc2c1OCO2,fluorescence,Ki,-,Protease,-,-,HIV-1,<0.001 µM
Cc1ccc(C(=O)O/N=C(\N)c2ccc(Cl)cc2Cl)cc1,scintillation proximity / radiometric,IC50,-,Polymerase,-,-,Human cytomegalovirus,>100 µM
CC(C)(CCCOC(=O)NC1CC1)CN(C[C@@H](O)[C@H](Cc1ccccc1)NC(=O)O[C@H]1CO[C@H]2OCC[C@H]21)S(=O)(=O)c1ccc2c(c1)OCO2,fluorescence,Ki,-,Protease,-,-,HIV-1,<0.001 µM
Cc1onc(-c2c(Cl)cccc2Cl)c1C(=O)O/N=C(\N)c1ccc(Cl)cc1Cl,scintillation proximity / radiometric,IC50,-,Polymerase,-,-,Human cytomegalovirus,9.5 µM
CN(C)C(=NCCCC(C)(C)CN(C[C@@H](O)[C@H](Cc1ccccc1)NC(=O)O[C@H]1CO[C@H]2OCC[C@H]21)S(=O)(=O)c1ccc2c(c1)OCO2)NC#N,fluorescence,Ki,-,Protease,-,-,HIV-1,<0.001 µM
CCOC(=O)CCCN1C(=O)c2ccccc2C(C(=O)c2ccccc2)C1=O,-,IC50,Serotype 14,Protease,-,-,Rhinovirus,63.3 µM
CC(=O)Nc1ccc(C(=O)O)cc1,-,inhibition,RH,DHPS,-,1 µM,Toxoplasma gondii,8.3%
N/C(=N\OC(=O)c1cnc2ccccc2n1)c1ccc(Cl)cc1Cl,scintillation proximity / radiometric,IC50,-,Polymerase,-,-,Human cytomegalovirus,>100 µM
O[C@@H]1[C@@H](O)[C@@H](NCc2ccccc2)[C@H]2O[C@H]2[C@H]1O,-,inhibition,-,Amyloglucosidase,-,100 µM,Aspergillus niger,0%
O=c1[nH]c(=O)n([C@@H]2O[C@H](CO)[C@@H](O)[C@@H]2O)cc1/C=C/Br,-,IC50,Kanno-Kohmura (TK-),Thymidylate synthetase,-,-,Varicella zoster virus,>100 µM
CCOC(=O)NCCCC(C)(C)CN(C[C@@H](O)[C@H](Cc1ccccc1)NC(=O)O[C@H]1CO[C@H]2OCC[C@H]21)S(=O)(=O)c1cccc(N)c1,fluorescence,Ki,-,Protease,-,-,HIV-1,<0.001 µM
Nc1nc(N)c2c(CNc3cc(Cl)c(-n4cccc4)c(Cl)c3)csc2n1,-,IC50,-,DHFR,-,-,Pneumocystis carinii,>10 µM
O=c1[nH]c(=O)n([C@H]2C[C@H](O)[C@@H](CO)O2)cc1/C=C/Br,-,IC50,KANNO (TK+),Thymidylate synthetase,-,-,Varicella zoster virus,<0.001 µM
COc1ccccc1N1CCN(c2cncc(-c3ccc(C(F)(F)F)cc3)n2)CC1,-,IC50,-,UL97 kinase,-,-,Cytomegalovirus,<100 µM
O=c1[nH][nH]c(=O)c2c1ncn2[C@@H]1O[C@H](CO)[C@@H](O)[C@H]1O,-,IC50,-,NTPase/helicase,-,-,West Nile virus,0.28 µM
Cc1[nH]nc2c1C(c1cc(C#N)cc(N3CCOCC3)c1)(C1CCC1)C(C#N)=C(N)O2,absorbance,Ki,-,Serine hydroxymethyltransferase,-,-,Plasmodium falciparum,0.284 µM
CC(C)NC(=S)NCCCC(C)(C)CN(C[C@@H](O)[C@H](Cc1ccccc1)NC(=O)O[C@H]1CO[C@H]2OCC[C@H]21)S(=O)(=O)c1ccc2c(c1)OCO2,fluorescence,Ki,-,Protease,-,-,HIV-1,<0.001 µM
Nc1ccn([C@H]2CC[C@@H](CO)O2)c(=O)n1,-,IC50,KANNO (TK+),Thymidylate synthetase,-,-,Varicella zoster virus,>100 µM
CC(=O)c1ccc(N2CCN(c3cncc(-c4ccccc4Oc4ccccc4)n3)CC2)cc1,-,inhibition,-,UL97 kinase,-,10 µM,Cytomegalovirus,>15%
O[C@@H]1[C@@H](O)[C@@H](NCc2ccc(C(F)(F)F)cc2)[C@@H]2O[C@@H]2[C@H]1O,-,Ki,-,Beta-D-xylosidase,-,-,Aspergillus niger,2.2 µM
N/C(=N/OC(=O)c1cccc2ccccc12)c1c(Cl)cc(Cl)cc1Cl,scintillation proximity / radiometric,IC50,-,Polymerase,-,-,Human cytomegalovirus,13.7 µM
CCCCCCCCCCCCC/C=C/[C@@H](O)[C@H](CO[C@@H]1O[C@H](CO)[C@H](O)[C@H](OS(=O)(=O)O)[C@H]1O)NC(=O)CCCCCCCCCCCCCCCCCCCCCCC,-,inhibition,Influenza A/Bangkok/1/79 (H3N2),Sialidase,-,200 µM,Influenza A virus,72.8%
CC(C)(CCCNC(=O)c1ccc(F)cc1)CN(C[C@@H](O)[C@H](Cc1ccccc1)NC(=O)O[C@H]1CO[C@H]2OCC[C@H]21)S(=O)(=O)c1ccc2c(c1)OCO2,fluorescence,Ki,-,Protease,-,-,HIV-1,<0.001 µM
COc1c(Cl)cccc1NC(=S)NNC(=S)N/N=C(\C)c1ccccn1,-,IC50,-,Ribonucleotide reductase,-,-,Herpes simplex virus 1,>5 µM
Cc1[nH]nc2c1C(c1cc(C#N)cc(-c3ccc(C(=O)O)cc3)c1)(C(C)C)C(C#N)=C(N)O2,absorbance,IC50,-,Serine hydroxymethyltransferase,-,-,Plasmodium falciparum,0.32 µM
CN(C)C(=O)NCCC(C)(C)CN(C[C@@H](O)[C@H](Cc1ccccc1)NC(=O)O[C@H]1CO[C@H]2OCC[C@H]21)S(=O)(=O)c1cccc(N)c1,fluorescence,Ki,-,Protease,-,-,HIV-1,<0.001 µM
NC1CCN(c2c(F)cc3c(=O)c(C(=O)O)cn(C4CC4)c3c2Cl)C1,-,IC50,-,DNA gyrase,-,-,Streptococcus pneumoniae,20.4 µg/mL
CO[C@H](C(=O)NO)[C@@H](CC(C)C)C(=O)N[C@H](C(=O)O)c1ccccc1,fluorescence,Ki,-,PfM17LAP,-,-,Plasmodium falciparum,0.025 µM
Cc1ccc(F)cc1C(=O)O/N=C(\N)c1ccc(Cl)cc1Cl,scintillation proximity / radiometric,IC50,-,Polymerase,-,-,Human cytomegalovirus,4.4 µM
CC(C)C(=O)N[C@H]1C([C@H](C)[C@@H](O)CO)OC(C(=O)O)=C[C@@H]1NS(=O)(=O)C(Cl)Cl,-,IC50,TYPE 2,Neuraminidase,-,-,Parainfluenza virus,1.9 µM
C/C(=N\NC(=S)NNC(=S)Nc1cc(Cl)c(Cl)cc1Cl)c1ccccn1,-,IC50,-,Ribonucleotide reductase,-,-,Herpes simplex virus 1,>5 µM
CSCCCN1C(=O)c2ccccc2C(CC(=O)c2ccccc2)C1=O,-,IC50,Serotype 2,Protease,-,-,Rhinovirus,8.4 µM
CC(C)(C)c1ccc(-c2cncc(N3CCN(c4ccncc4)CC3)n2)cc1,-,IC50,-,UL97 kinase,-,-,Cytomegalovirus,<10 µM
CC(C)(CCCCNS(C)(=O)=O)CN(C[C@@H](O)[C@H](Cc1ccccc1)NC(=O)O[C@H]1CO[C@H]2OCC[C@H]21)S(=O)(=O)c1cccc2c1OCO2,fluorescence,Ki,-,Protease,-,-,HIV-1,<0.001 µM
C/C(=N\NC(=S)NNC(=S)NC1CCCC1)c1ccccn1,-,IC50,-,Ribonucleotide reductase,-,-,Herpes simplex virus 1,>5 µM
COc1cccc(C(=O)O/N=C(\N)c2ccc(Cl)cc2Cl)c1OC,scintillation proximity / radiometric,IC50,-,Polymerase,-,-,Human cytomegalovirus,>100 µM
C=CCCOC(=O)NCCC(C)(C)CN(C[C@@H](O)[C@H](Cc1ccccc1)NC(=O)O[C@H]1CO[C@H]2OCC[C@H]21)S(=O)(=O)c1ccc2c(c1)OCO2,fluorescence,Ki,-,Protease,-,-,HIV-1,<0.001 µM
Clc1cccc(-c2cncc(N3CCN(c4ccncc4)CC3)n2)c1,-,IC50,-,UL97 kinase,-,-,Cytomegalovirus,<1 µM
Cc1cn([C@@H]2O[C@H](CO)[C@@H](O)[C@@H]2O)c(=O)[nH]c1=O,-,IC50,KANNO (TK+),Thymidylate synthetase,-,-,Varicella zoster virus,56 µM
Fc1cccc(C2CN(c3ccccn3)CCN2c2cnccn2)c1,-,inhibition,-,UL97 kinase,-,10 µM,Cytomegalovirus,>15%
N/C(=N\OC(=O)C1CCCCC1)c1ccc(Cl)cc1Cl,scintillation proximity / radiometric,IC50,-,Polymerase,-,-,Human cytomegalovirus,>100 µM
CC(C)N(C(=O)NCCC(C)(C)CN(C[C@@H](O)[C@H](Cc1ccccc1)NC(=O)O[C@H]1CO[C@H]2OCC[C@H]21)S(=O)(=O)c1ccc2c(c1)OCO2)C(C)C,fluorescence,Ki,-,Protease,-,-,HIV-1,<0.001 µM
CC(C)=CCN1Cc2cccc3[nH]c(=S)n(c23)C[C@@H]1C,nucleotide incorporation,IC50,-,Reverse transcriptase,RT-Y271S,-,HIV,>46 µM
O[C@@H]1[C@@H](O)[C@@H](NCc2ccc(-c3ccccc3)cc2)[C@H]2O[C@H]2[C@H]1O,-,inhibition,-,Beta-D-xylosidase,-,100 µM,Aspergillus niger,42%
Cc1[nH]nc2c1C(c1cc(C#N)cc(C(F)(F)F)c1)(C1CC=CC1)C(C#N)=C(N)O2,absorbance,IC50,-,Serine hydroxymethyltransferase,-,-,Plasmodium falciparum,0.66 µM
CC(C)(CCOC(=O)NN)CN(C[C@@H](O)[C@H](Cc1ccccc1)NC(=O)O[C@H]1CO[C@H]2OCC[C@H]21)S(=O)(=O)c1ccc2c(c1)OCO2,fluorescence,Ki,-,Protease,-,-,HIV-1,<0.001 µM
CN1C(=O)c2ccccc2C(CC(=O)c2ccc(F)cc2)C1=O,-,IC50,Serotype 2,Protease,-,-,Rhinovirus,21.8 µM
O=C(O)c1cn(C2CC2)c2cc(N3CCNCC3)ccc2c1=O,-,IC50,-,Topoisomerase II,-,-,Streptococcus pneumoniae,30.4 µg/mL
COC(=O)c1ccc(-c2cc(Cl)cc(C3(C4CCC4)C(C#N)=C(N)Oc4n[nH]c(C)c43)c2)cc1,absorbance,Ki,-,Serine hydroxymethyltransferase,-,-,Plasmodium falciparum,0.21 µM
CCCCOC(=O)NCCC(C)(C)CN(C[C@@H](O)[C@H](Cc1ccccc1)NC(=O)O[C@H]1CO[C@H]2OCC[C@H]21)S(=O)(=O)c1ccc2c(c1)OCO2,fluorescence,Ki,-,Protease,-,-,HIV-1,<0.001 µM
COc1ccc(OC)c(NCc2csc3nc(N)nc(N)c23)c1,-,inhibition,-,DHFR,-,10 µM,Pneumocystis carinii,<30%
COc1ccc(S(=O)(=O)N(C[C@@H](O)[C@H](Cc2ccccc2)NC(=O)OC(C)(C)C)CC(C)(C)CCC#N)cc1,fluorescence,Ki,-,Protease,-,-,HIV-1,<0.001 µM
COc1ccc(Cl)cc1NC(=S)NNC(=S)N/N=C(\C)c1ccccn1,-,IC50,-,Ribonucleotide reductase,-,-,Herpes simplex virus 1,>5 µM
CSCCCN1C(=O)c2ccccc2C(C(=O)c2ccccc2)C1=O,-,IC50,Serotype 2,Protease,-,-,Rhinovirus,23.1 µM
CCOc1ccc(-c2cncc(N3CCN(c4ccc(F)cc4F)CC3)n2)cc1,-,IC50,-,UL97 kinase,-,-,Cytomegalovirus,<100 µM
C[C@H]1NCc2cc(-c3c(F)cc4c(=O)c(C(=O)O)cn(C5CC5)c4c3OC(F)F)ccc21,-,IC50,-,Topoisomerase II,-,-,Streptococcus pneumoniae,0.234 µg/mL
Cc1[nH]nc2c1C(C)(c1cc(Cl)cc(Cl)c1)C(C#N)=C(N)O2,absorbance,Ki,-,Serine hydroxymethyltransferase,-,-,Plasmodium falciparum,3.57 µM
CONC(=O)OCCC(C)(C)CN(C[C@@H](O)[C@H](Cc1ccccc1)NC(=O)O[C@H]1CO[C@H]2OCC[C@H]21)S(=O)(=O)c1ccc2c(c1)OCO2,fluorescence,Ki,-,Protease,-,-,HIV-1,<0.001 µM
CCN(CC)CCCC(C)NC(=O)c1ccc(-c2cc(C#N)cc(C3(C(C)C)C(C#N)=C(N)Oc4n[nH]c(C)c43)c2)s1,absorbance,Ki,-,Serine hydroxymethyltransferase,-,-,Plasmodium falciparum,0.349 µM
CCCOC(=O)NCCCC(C)(C)CN(C[C@@H](O)[C@H](Cc1ccccc1)NC(=O)O[C@H]1CO[C@H]2OCC[C@H]21)S(=O)(=O)c1ccc2c(c1)OCO2,fluorescence,Ki,-,Protease,-,-,HIV-1,<0.001 µM
COc1c(N2C[C@@H]3CCCN[C@@H]3C2)ccc2c(=O)c(C(=O)O)cn(C3CC3)c12,-,IC50,-,DNA gyrase,-,-,Streptococcus pneumoniae,42.4 µg/mL
CC(C)OC(=O)NCCC(C)(C)CN(C[C@@H](O)[C@H](Cc1ccccc1)NC(=O)O[C@H]1CO[C@H]2OCC[C@H]21)S(=O)(=O)c1ccc2c(c1)OCO2,fluorescence,Ki,-,Protease,-,-,HIV-1,<0.001 µM
CCc1[nH]nc2c1C(c1cc(Cl)cc(Cl)c1)(C1CCC1)C(C#N)=C(N)O2,absorbance,Ki,-,Serine hydroxymethyltransferase,-,-,Plasmodium falciparum,0.5125 µM
CC(C)C(=O)NCCCC(C)(C)CN(C[C@@H](O)[C@H](Cc1ccccc1)NC(=O)O[C@H]1CO[C@H]2OCC[C@H]21)S(=O)(=O)c1ccc2c(c1)OCO2,fluorescence,Ki,-,Protease,-,-,HIV-1,<0.001 µM
COc1cccc(N2CCN(c3cncc(-c4ccc(C(N)=O)cc4)n3)CC2)c1,-,IC50,-,UL97 kinase,-,-,Cytomegalovirus,<10 µM
COC(=O)NCCCCC(C)(C)CN(C[C@@H](O)[C@H](Cc1ccccc1)NC(=O)O[C@H]1CCOC1)S(=O)(=O)c1ccc2c(c1)OCO2,fluorescence,Ki,-,Protease,-,-,HIV-1,<0.001 µM
Oc1ccc(CN[C@@H]2[C@H](O)[C@@H](O)[C@H](O)[C@H]3O[C@@H]23)cc1,-,inhibition,-,Beta-D-xylosidase,-,100 µM,Aspergillus niger,86%
CCCC(=O)C1C(=O)N(CC(=O)N2CCCC2C(=O)O)C(=O)c2ccccc21,-,IC50,Serotype 14,Protease,-,-,Rhinovirus,>100 µM
CC(C)(CCCCCNC(=O)OC1COCOC1)CN(C[C@@H](O)[C@H](Cc1ccccc1)NC(=O)O[C@H]1CO[C@H]2OCC[C@H]21)S(=O)(=O)c1ccc2c(c1)OCO2,fluorescence,Ki,-,Protease,-,-,HIV-1,<0.001 µM

Neighbouring rows are from separate reports. ICn is the concentration giving n% inhibition. An empty or dashed field is not shown.